This experiment addresses NA of A/Texas/12/2007 (H3N2 119E) (Influenza A virus (A/Texas/12/2007(H3N2)), UniProt D1FVK3). The note with it: control virus A/Texas/12/2007 (H3N2 119E); reference.

The substance oseltamivir carboxylate returned a Fold change of 1 fold.

Source of the values: PMC6604316 (Virology Journal, 2019).
